These results are taken from patent US12458691.

Assay [1] has as its target BG505.DS-SOSIP.Δ611. Description: SPR, Fab over 2G12-captured trimer, 1:1 fit.
The target of assay [2] is BG505.DS-SOSIP.Δ88. Nature of the assay: SPR, Fab over 2G12-captured trimer, 1:1 fit.

In the case of VRC34.01 Fab, the results for the Kd in assay [1] and in assay [2] were 0.446 nM and 2 nM, respectively.
